# Source: US20220387578A1, “Peptide vaccine based on a new universal influenza a hemagglutinin head domain epitope and human monoclonal antibodies binding thereto” (published 2022)
# Target: H7 HA A/Netherlands/219/2003 (H7N7), recombinant (influenza A virus)
# Assay: ELISA
substance,measurement,value
rFluA-20 heavy chain mutant C101A (antibody),EC50,0.17 µg/mL
